# Test results as given in PMC10269650.
# For at least one entry, the source does not settle the construct or the ends of the probe.
# Test system: MBP-Sin3 (Magnaporthe oryzae)
# Assay: EMSA
# Conditions: recombinant protein, protein details: MBP (N-terminal, pMAL-c5X)
Sequence,binding result (label: biotin (both strands)),"binding result (label: biotin (F strand, R name lacks biotin))"
GATGATGGCTCCGGATAAGAGGGCGCTGCAGATGCATCCATCTATCGGTAGTCTGCTTGGGTTGGAAGGCTTATTTTGTTGTTCTTTTTTCTTGGTACTG (double strand) [ATG13 promoter probe],binds,
ACTGACACGAATGCAGCCTTTTGACAGAAGTCAACCTTCCTAGGCCACAAAACTCTTATTACTCTGCTTGCTCGGTCCTAGATCTGGACGTACAGTAGGT (double strand) [ATG1 promoter probe],,binds
TGGCAGAGGGTTTCTGCGCGTTGGACCGGGGCGCACCTGAAGACTGCCCATCGTTCAGTTGGCGCTGCCGGTTGTAGGTTTTGGTTAGGTCGCCGGTTGT (double strand) [ATG17 promoter probe],binds,
